# PSTVd loop 15 mutant pool in Nicotiana benthamiana

Values reported by Wu et al. 2024 (doi:10.1371/journal.ppat.1012142).

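A pool of all variants was put on leaves of three Nicotiana benthamiana plants. Progeny were sequenced from the inoculated region (day 5), the margin of the inoculated leaf (day 10) and systemic leaves (day 12).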

PSTVd intermediate strain, loop 15: wild type GGAAACCGCUACUAC, pool pattern GGAAACCGNNNNNNC; upper and lower strand joined, each 5' to 3', the first 7 letters being the upper strand, closing pairs included.

Values are reads per thousand in the sample; higher means more abundant, 0 means not found.
Each site shows the three plants.
"Pool" is the share in the plasmid pool used as inoculum, on the same scale.
The inoculated region was read from the minus strand, the other sites from the plus strand.
For reference, wild type rose from 33.9 per thousand in the pool to 202, 200, 159 (inoculated region), 724, 746, 710 (leaf margin) and 856, 883, 880 (systemic leaves).

{"sequence": "GGAAACCGACGAUUC", "pool": "0.224", "inoculated region": "0.229 / 0.305 / 0.190", "leaf margin": "0.0970 / 0.111 / 0.200", "systemic leaves": "0.0322 / 0.0303 / 0.0912"}
{"sequence": "GGAAACCGACGCAAC", "pool": "0.320", "inoculated region": "0.0983 / 0.0643 / 0.190", "leaf margin": "0.0162 / 0.0445 / 0", "systemic leaves": "0 / 0 / 0"}
{"sequence": "GGAAACCGACGCACC", "pool": "0.256", "inoculated region": "0.0328 / 0.0803 / 0.0762", "leaf margin": "0.0162 / 0 / 0.0200", "systemic leaves": "0 / 0 / 0"}
{"sequence": "GGAAACCGACGCAGC", "pool": "0.224", "inoculated region": "0.131 / 0.145 / 0.133", "leaf margin": "0 / 0.0223 / 0", "systemic leaves": "0 / 0 / 0"}
{"sequence": "GGAAACCGACGCAUC", "pool": "0.240", "inoculated region": "0.0819 / 0.112 / 0.0952", "leaf margin": "0 / 0 / 0", "systemic leaves": "0.0161 / 0 / 0"}
{"sequence": "GGAAACCGACGCCAC", "pool": "0.304", "inoculated region": "0.0819 / 0.0803 / 0.0952", "leaf margin": "0.0162 / 0 / 0.0401", "systemic leaves": "0 / 0 / 0"}
{"sequence": "GGAAACCGACGCCCC", "pool": "0.256", "inoculated region": "0.115 / 0.177 / 0.0952", "leaf margin": "0.0323 / 0.0445 / 0", "systemic leaves": "0.0161 / 0 / 0"}
{"sequence": "GGAAACCGACGCCGC", "pool": "0.224", "inoculated region": "0.0655 / 0.0643 / 0.0571", "leaf margin": "0.0162 / 0 / 0.0401", "systemic leaves": "0 / 0 / 0"}
{"sequence": "GGAAACCGACGCCUC", "pool": "0.256", "inoculated region": "0.0819 / 0.0643 / 0.0571", "leaf margin": "0.0162 / 0 / 0", "systemic leaves": "0 / 0 / 0"}
{"sequence": "GGAAACCGACGCGAC", "pool": "0.176", "inoculated region": "0.164 / 0.0964 / 0.0952", "leaf margin": "0 / 0 / 0.0401", "systemic leaves": "0 / 0 / 0"}
{"sequence": "GGAAACCGACGCGCC", "pool": "0.240", "inoculated region": "0.115 / 0.129 / 0.114", "leaf margin": "0.0162 / 0 / 0", "systemic leaves": "0 / 0 / 0"}
{"sequence": "GGAAACCGACGCGGC", "pool": "0.256", "inoculated region": "0.0328 / 0.0161 / 0.0952", "leaf margin": "0 / 0.0223 / 0", "systemic leaves": "0 / 0 / 0"}
{"sequence": "GGAAACCGACGCGUC", "pool": "0.208", "inoculated region": "0.0328 / 0.0803 / 0.133", "leaf margin": "0 / 0 / 0", "systemic leaves": "0.0161 / 0 / 0"}
{"sequence": "GGAAACCGACGCUAC", "pool": "0.224", "inoculated region": "0.409 / 0.337 / 0.381", "leaf margin": "0.129 / 0.0668 / 0.200", "systemic leaves": "0.0322 / 0 / 0"}
{"sequence": "GGAAACCGACGCUCC", "pool": "0.272", "inoculated region": "0.0491 / 0.0643 / 0.114", "leaf margin": "0 / 0 / 0.0200", "systemic leaves": "0 / 0 / 0"}
{"sequence": "GGAAACCGACGCUGC", "pool": "0.288", "inoculated region": "0.0983 / 0.0803 / 0.0571", "leaf margin": "0 / 0 / 0.0200", "systemic leaves": "0.0161 / 0 / 0"}
{"sequence": "GGAAACCGACGCUUC", "pool": "0.272", "inoculated region": "0.180 / 0.145 / 0.324", "leaf margin": "0 / 0.0223 / 0", "systemic leaves": "0 / 0 / 0"}
{"sequence": "GGAAACCGACGGAAC", "pool": "0.160", "inoculated region": "0.229 / 0.321 / 0.209", "leaf margin": "0.0970 / 0.0891 / 0.180", "systemic leaves": "0.0483 / 0 / 0.0228"}
{"sequence": "GGAAACCGACGGACC", "pool": "0.304", "inoculated region": "0.115 / 0.0803 / 0.209", "leaf margin": "0 / 1.96 / 0.0200", "systemic leaves": "0 / 0 / 0"}
{"sequence": "GGAAACCGACGGAGC", "pool": "0.192", "inoculated region": "0.0491 / 0.0321 / 0.0381", "leaf margin": "0 / 0 / 0", "systemic leaves": "0 / 0 / 0"}
{"sequence": "GGAAACCGACGGAUC", "pool": "0.320", "inoculated region": "0.0819 / 0.129 / 0", "leaf margin": "0 / 0 / 0", "systemic leaves": "0 / 0 / 0"}
{"sequence": "GGAAACCGACGGCAC", "pool": "0.240", "inoculated region": "0.131 / 0.112 / 0.190", "leaf margin": "0.0162 / 0 / 0.0200", "systemic leaves": "0.0161 / 0 / 0"}
{"sequence": "GGAAACCGACGGCCC", "pool": "0.240", "inoculated region": "0.0655 / 0.161 / 0.0190", "leaf margin": "0.0323 / 0 / 0", "systemic leaves": "0 / 0 / 0"}
{"sequence": "GGAAACCGACGGCGC", "pool": "0.176", "inoculated region": "0.0328 / 0.0803 / 0.114", "leaf margin": "0.0323 / 0 / 0", "systemic leaves": "0 / 0 / 0"}
{"sequence": "GGAAACCGACGGCUC", "pool": "0.240", "inoculated region": "0.147 / 0.241 / 0.114", "leaf margin": "0.0162 / 0.0223 / 0.0401", "systemic leaves": "0 / 0 / 0"}
{"sequence": "GGAAACCGACGGGAC", "pool": "0.336", "inoculated region": "0.0491 / 0.0643 / 0.114", "leaf margin": "0 / 0.0445 / 0", "systemic leaves": "0 / 0 / 0"}
{"sequence": "GGAAACCGACGGGCC", "pool": "0.160", "inoculated region": "0.278 / 0.145 / 0.190", "leaf margin": "0.0162 / 0 / 0.0401", "systemic leaves": "0 / 0 / 0"}
{"sequence": "GGAAACCGACGGGGC", "pool": "0.208", "inoculated region": "0.0655 / 0.0964 / 0.0762", "leaf margin": "0 / 0 / 0", "systemic leaves": "0 / 0 / 0"}
{"sequence": "GGAAACCGACGGGUC", "pool": "0.256", "inoculated region": "0.557 / 0.466 / 0.305", "leaf margin": "0 / 0 / 0.0401", "systemic leaves": "0.0161 / 0 / 0"}
{"sequence": "GGAAACCGACGGUAC", "pool": "0.192", "inoculated region": "0.524 / 0.578 / 0.628", "leaf margin": "0.0485 / 0.0445 / 0.200", "systemic leaves": "0.0644 / 0.0454 / 0.0456"}
{"sequence": "GGAAACCGACGGUCC", "pool": "0.336", "inoculated region": "0.0819 / 0.0321 / 0.0571", "leaf margin": "0.0162 / 0 / 0", "systemic leaves": "0 / 0 / 0"}
{"sequence": "GGAAACCGACGGUGC", "pool": "0.224", "inoculated region": "0.311 / 0.386 / 0.647", "leaf margin": "0.0970 / 0.0223 / 0.160", "systemic leaves": "0.0322 / 0 / 0"}
{"sequence": "GGAAACCGACGGUUC", "pool": "0.288", "inoculated region": "0.262 / 0.193 / 0.286", "leaf margin": "0.113 / 0.0223 / 0.140", "systemic leaves": "0.0483 / 0.0454 / 0.0456"}

Samples held 43,870 to 66,106 reads, so the smallest values rest on one or two reads.
Sequences that differ at fixed positions probably stem from PCR or sequencing errors, and defective variants can be carried along by functional ones.